# Laboratory results taken from US20230181697A1 (published 2023).
# B1: full length recombinant human rhSP-D produced in human cell line GlycoExpress (GEX), variant Met11, (other)
# chain: AEMKTYSHRTMPSACTLVMCSSVESGLPGRDGRDGREGPRGEKGDPGLPGAAGQAGMPGQAGPVGPKGDNGSVGEPGPKGDTGPSGPPGPPGVPGPAGREGPLGKQGNIGPQGKPGPKGEAGPKGEVGAPGMQGSAGARGLAGPKGERGVPGERGVPGNTGAAGSAGAMGPQGSPGARGPPGLKGDKGIPGDKGAKGESGLPDVASLRQQVEALQGQVQHLQAAFSQYKKVELFPNGQSVGEKIFKTAGFVKPFTEAQLLCTQAGGQLASPRSAAENAALQQLVVAKNEAAFLSMTDSKTEGKFTYPTGESLVYSNWAPGEPNDDGGSEDCVEIFTNGKWNDRACGEKRLVVCEF
# Target: T1, S1-protein variant of SARS-CoV-2 containing a single mutation (D614G) (SARS-CoV-2, UniProt P0DTC2 16-685)
# T1 construct: domain: S1 subunit
# Experiment: ELISA, S1 D614G immobilized, rhSP-D titrated (FIG. 4E)
binder,measurement,value
B1,binding result,binds
